# Measurements: patent publication US20260274928A1 (VIR BIOTECHNOLOGY, published 2026)
# What was measured:
# [1] = biological target: T1, SARS-CoV-2 BA.2.75.2 RBD (SARS-CoV-2 BA.2.75.2); assay: RBD binding affinity (SPR, see Example 5)
# T1 construct: domain: RBD
# [2] = biological target: T2, SARS-CoV-2 BQ.1.1 RBD (SARS-CoV-2 BQ.1.1); assay: RBD binding affinity (SPR, see Example 5)
# T2 construct: domain: RBD
# [3] = biological target: T3, SARS-CoV-2 BA.4.6 RBD (SARS-CoV-2 BA.4.6); assay: RBD binding affinity (SPR, see Example 5)
# T3 construct: domain: RBD
# [4] = biological target: T4, SARS-CoV-2 BA.2 RBD (SARS-CoV-2 BA.2); assay: RBD binding affinity (SPR, see Example 5)
# T4 construct: domain: RBD
# [5] = biological target: T5, SARS-CoV-2 BA.4/5 RBD (SARS-CoV-2 BA.4/5); assay: RBD binding affinity (SPR, see Example 5)
# T5 construct: domain: RBD
# [6] = biological target: T6, SARS-CoV-2 BA.2.75 RBD (SARS-CoV-2 BA.2.75); assay: RBD binding affinity (SPR, see Example 5)
# T6 construct: domain: RBD
# [7] = biological target: SARS-CoV-2 XBB.1.5 S glycoprotein (SARS-CoV-2 XBB.1.5); assay: cell-based or functional assay
# [8] = biological target: T7, SARS-CoV-2 XBB.1.5 RBD (SARS-CoV-2 XBB.1.5); assay: RBD binding affinity (SPR, see Example 5)
# T7 construct: domain: RBD
Binder,Kd [1] [nM],Kd [2] [nM],Kd [3] [nM],Kd [4] [nM],Kd [5] [nM],Kd [6] [nM],IC50 [7] [ng/mL],Kd [8] [nM]
"S2V29-v1.2 (antibody, V domains shown) VH: EVQLVESGGSVVQPGRALRLSCAASGITFSSFGMYWVRQAPGKGLEWLGVIAYDGSNTYYADSVKGRFTISRDNSKNTLYLQMNSLRIEDTAVYYCAKDYYPLLSYYYGLDVWGQGTTVTVSS VL: QSVLTQPRSVSGSPGQSVTISCTGTSSDVGAYNYVSWYQQHPGKAPKFMIYDVDQRPSGVPDRFSGSKSGNTASLIISGLQAEDEADYYCSSYAGSYIWVFGGGTQLTVL",< 0.02,< 0.02,< 0.02,0.02,0.04,0.03,,
"S2V29-v37.2 (antibody, V domains shown) VH: EVQLVESGGSVVQPGRALRLSCAASGITFSSFGMYWVRQAPGKGLEWLGYIAYDGSDTYYADSVKGRFTISRDNSKNTLYLQMNSLRIEDTAVYYCAKDYYPLLSYYYGLDVWGQGTTVTVSS VL: QSVLTQPRSVSGSPGQSVTISCTGTSSDVGAYNYVSWYQQHPGKAPKFMIYDVDQRPSGVPDRFSGSKSGNTASLIISGLQAEDEADYYCSSYAGSYIWVFGGGTQLTVL",,0.08,,0.37,0.2,,3.4,0.07
"S3L17 (antibody, V domains shown) VH: EVQLVESGGGLVQPGGSLRLSCAASEIIVSSNYMNWVRQAPGKGLEWVSVIYAGGSTFYADSVRGRFTISRDNSKNTLYLQMNSLRPDDTAIYYCARDLGPWGMDVWGQGTTVTVSS VL: DIQMTQSPSSLSASVGDRVAITCRASHGINNDLAWYQQKPGKVPKLLIYAASTLQSGVPSRFSGSGSGTDFTLTISSLQPEDVATYYCQHYSSDPRFTFGPGTKVDIK",1.29,1.26,0.05,0.18,0.08,0.27,,
